According to the supplement of paper PMC9931576:
Human monoclonal antibodies against the spike receptor-binding domain (heavy:light variable regions). IC50 against pseudoviruses bearing the spike of naturally observed variants; lower = stronger; >10 µg/ml means not reached at the top dose. No active / inactive call. The stated detection limit is 0.0005 µg/ml; values near or below 0.001 µg/ml lie at the floor of the assay.

Assays:
Assay in all cases: pseudovirus neutralization IC50; higher = weaker neutralization
[1] = target: SARS-CoV-2 Omicron BA.1 spike pseudovirus
Procedure: (§1)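 Single-round VSV luciferase pseudovirus mixed with antibody dilutions for 1 h and put on Huh-7 cells for about a day; IC50 from the dose curve.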

[2] = target: SARS-CoV-2 Omicron BA.2 spike pseudovirus
Procedure: as §1

[3] = target: SARS-CoV-2 Omicron BA.2.75 spike pseudovirus
Procedure: as §1

[4] = target: SARS-CoV-2 Omicron BA.5 spike pseudovirus
Procedure: as §1

[5] = target: SARS-CoV-2 Omicron BQ.1.1 spike pseudovirus
Procedure: as §1

[6] = target: SARS-CoV-2 Omicron XBB spike pseudovirus
Procedure: as §1

[7] = target: SARS-CoV-2 early D614G spike pseudovirus
Procedure: as §1

Binder	pseudovirus neutralization IC50 [1] [µg/mL]	pseudovirus neutralization IC50 [2] [µg/mL]	pseudovirus neutralization IC50 [3] [µg/mL]	pseudovirus neutralization IC50 [4] [µg/mL]	pseudovirus neutralization IC50 [5] [µg/mL]	pseudovirus neutralization IC50 [6] [µg/mL]	pseudovirus neutralization IC50 [7] [µg/mL]
BD56-606 (protein) chain 1: QMQLVQSGPEVKKPGTSVKVSCKASGFTFTYSAVQWVRQARGQGLEWIGWIVAGSGDTDYAQNFQERVTITRDMSSTTAYMELSSLRSDDTAVYYCAAPYCSGGKCRDGFDMWGQGTMVTVSS chain 2: EVVLTQSPGTLSLSPGERATLSCRASQSVRSNYLAWYQQKPGQAPRVLIYGASTRATGIPDRFSGSGSGTDFTLIISRLEPEDFAVYYCQQYGNSPWTFGQGTKVEIK	0.00154	0.000965	0.00103	0.53	> 10	> 10	0.00457
BD56-605 (protein) chain 1: QVQLVQSGPEVKKPGSSVKVSCKASGGTFSSYTISWVRQAPGQGLEWMGRIIPVLSITNYAQKFQGRVTITADTSTRTAYMELSSLSSEDTALYYCARDTRWGDFTDHEVHWFDPWGQGTLVIVSS chain 2: DIVMTQSPDSLAVSLGERATINCKSSQSVFYSSKDKNCLAWYQQKAGQPPKLLIYWASTRESGVPDRFSGSGSGTDFTLTISSLQAEDVAVYYCQQYYNTADITFGPGTKVDIK	0.0214	0.00445	0.0117	> 10	> 10	> 10	0.202
DH1072 (protein) chain 1: QVQLVESGGGVVQPGRSLRLSCAASGFTFSHYGMHWVRQAPGKGLEWVALISYDGNNKYYADSVKGRFTISRDNSKNTLYLQMNSLRAEDTAVYYCAKAPYSYAYSVYFFDYWGQGTLVTVSS chain 2: NFMLTQPHSVSESPGKTVTISCTRSSGSIASNNVQWYQQRPGSAPTTVIYEDNQRPSGVPDRFSGSIDSSSNSASLTISGLKTEDEADYYCQSYDSSNHVVFGGGTKLTVL	> 10	> 10	> 10	> 10	> 10	> 10	1.36
BD56-621 (protein) chain 1: EVQLVESGGGLVQPGGSLRLSCAASGVTVSSNYMTWVRQAPGKGLEGVAVIYPGGSTFYADSVKSRFTISRHNSKNTLYLQMNSLRLEDTAVYYCARDLGPDGMDVWGQGTTVTVSS chain 2: DIQLTQSPSFLSASVGDRVTITCRSSQGMSSYLAWYQQKPGKAPKLLIYAASTLQSRVPSRFSGSGSGTEFTLTISSLQPEDFATYYCQQLNSDPPVTFGGGTKVEIK	0.00579	0.00437	0.998	0.00915	> 10	> 10	0.024
BD56-609 (protein) chain 1: QVQLVQSGAEVKKPGASVKVSCKTSGYTFNNYGISWVRQAHGQGLEWMGWISPYNGDTNYAQRLQGRATMTTDTSTTTAYMELRSLRSDDTAVFYCATVAGGLGGDLLSEPYFDYWGQGTLVTVSS chain 2: SYELTQPPSVSVSPGQTARITCSGDAFPNQYAYWYQQKPGQAPVLVIYRDSERPSGIPERFSGSSSGTTVTLTISGVQAEDEADYYCQSADSRAGVFGGGTKLTVL	3.79	2.92	4.32	3.25	3.38	4.06	1.2
BD56-607 (protein) chain 1: QVQLVESGGGVVQPGRSLRLSCAASGFSFSNYSMHWVRQAPGEGLEWVSVILDDGTGKLYADSVKGRFTISRDNSKKTLYLEMNSLRAEDTAVYFCARDTTAGTTMVTLFDYWGQGTLVTVSS chain 2: DIQMTQSPSSLSASVGDRVTITCRASQNIRTYLNWYQQKPGKAPKLLMYVASSLQSGVPSRFSGSGSGTDFTLTISSLQPEDFAIYYCQQSYSTPPWTFGQGTKLYIK	> 10	> 10	> 10	> 10	> 10	> 10	> 10
